The values below come from paper PMC13291817, “Engineering an Exo70 integrated domain of a barley NLR for improved blast resistance” (2026).

Test [1] deals with RGH2-Exo70 domain (residues 1033-1637), purified from E. coli (barley (Hordeum vulgare)). As to the kind of experiment: ITC.
In test [2] the target is RGH2^+-Exo70 domain (residues 1033-1637), purified from E. coli (barley (Hordeum vulgare)). The experiment in a line: ITC.

For “AVR-Pii^Wb, purified from E. coli (natural protein)”, the values for the dissociation constant (Kd) in test [1] and in test [2] were 6.7 µM and 1.06 µM, respectively.
